Article PMC9600549
For at least one entry, the source does not settle the construct or the ends of the probe.

Columns and labels:
Test in all cases: EMSA
[1] = biological target: RcrR-C153S (Escherichia coli CFT073 (UPEC)) (UniProt A0A0H2VAS2); conditions: reduced, comparable to wild type; recombinant protein; protein details: N-terminal His6 (pET28a); probe letters rebuilt from the primers and the genome
[2] = biological target: RcrR-C88S (Escherichia coli CFT073 (UPEC)) (UniProt A0A0H2VAS2); conditions: reduced, comparable to wild type; recombinant protein; protein details: N-terminal His6 (pET28a); probe letters rebuilt from the primers and the genome
[3] = biological target: RcrR wild-type (Escherichia coli CFT073 (UPEC)) (UniProt A0A0H2VAS2); conditions: recombinant protein, protein details: N-terminal His6 (pET28a), probe letters rebuilt from the primers and the genome

Measured: binding result

CATGAGCAGTTTCTCTTTATGTTTGCGATACTACACATGCTACCTTCTGATTGGTAGGCTTGCAAGATGGATTTATTTAAAATAAGAGGGATGATTTGTATCAAATTGTTTTGTATTTTTGTGTTTTGTATCACTGAGGTGAAGTTGTAAGATCTGGCCCTCTGCGAGGTTGGCTCTGTCGAAAGGAACAGGTGACGAGAGTTAACATCGTTGCCTTGGCTGCATGGGGGATATGTAGCTACCCCCTGATATTTCCGCCACGGAAGCCAATATGAACAACAATAACAATACGCCTCGTTTCCAGTATGCTTCATGTCGGATATTTTGTAAGCGCTATGTACTTCCCGGGACGCTTATCTTTTAGCCGTAGCTGGTAGTGCAATAAAAGCCTGGCAGCAATCCAGGCCTCTACGTTCTAAGAATCAACTGTCAG (double strand) [PrcrARB promoter fragment]
binds: [1] | [2] | [3]; NCT-oxidized, then 2 mM DTT | [3]; pretreated with 5-fold H2O2 | [3]; reduced
